In patent US20230265170A1:

Key:
Test in all cases: cell-based or functional assay
[1] = biological target: SARS-CoV-2 spike (S) protein, Victoria strain (SARS-CoV-2)
[2] = biological target: SARS-CoV-2 Victoria spike (S) protein (SARS-CoV-2)
[3] = biological target: SARS-CoV-2 Gamma (P.1) spike (S) protein (SARS-CoV-2) (UniProt P0DTC2)
[4] = biological target: SARS-CoV-2 Alpha (B.1.1.7) spike (S) protein (SARS-CoV-2) (UniProt P0DTC2)
[5] = biological target: SARS-CoV-2 Victoria spike (S) protein (Wuhan + S247R) (SARS-CoV-2)
[6] = biological target: SARS-CoV-2 Omicron BA.1 spike (S) protein of the live isolate (SARS-CoV-2)
[7] = biological target: SARS-CoV-2 spike (S) protein, Omicron BA.1 (SARS-CoV-2) (UniProt P0DTC2)
[8] = biological target: SARS-CoV-2 spike (S) protein, Omicron BA.1.1 (SARS-CoV-2) (UniProt P0DTC2)
[9] = biological target: SARS-CoV-2 spike (S) protein, Omicron BA.4/5 (SARS-CoV-2) (UniProt P0DTC2)
[10] = biological target: SARS-CoV-2 spike (S) protein, Omicron BA.2.3.20 (SARS-CoV-2) (UniProt P0DTC2)
[11] = biological target: SARS-CoV-2 Omicron BA.4.6 spike (S) protein (SARS-CoV-2)
[12] = biological target: SARS-CoV-2 spike (S) protein, Omicron BA.2.75.2 (SARS-CoV-2) (UniProt P0DTC2)
[13] = biological target: SARS-CoV-2 Omicron BA.1.1 spike (S) protein (SARS-CoV-2)
[14] = biological target: SARS-CoV-2 spike (S) protein, Victoria strain (Wuhan + S247R) (SARS-CoV-2)
[15] = biological target: SARS-CoV-2 Delta (B.1.617.2) spike (S) protein (SARS-CoV-2) (UniProt P0DTC2)
[16] = biological target: SARS-CoV-2 spike (S) protein, Omicron BA.4.6 (SARS-CoV-2) (UniProt P0DTC2)
[17] = biological target: SARS-CoV-2 spike (S) protein, Omicron BA.2.75 (SARS-CoV-2) (UniProt P0DTC2)
[18] = biological target: SARS-CoV-2 spike (S) protein, Omicron BA.2 (SARS-CoV-2) (UniProt P0DTC2)
[19] = biological target: SARS-CoV-2 spike (S) protein, Omicron BA.3 (SARS-CoV-2)
[20] = biological target: SARS-CoV-2 spike (S) protein, Omicron BA.1 (SARS-CoV-2)
[21] = biological target: SARS-CoV-2 spike (S) protein, Omicron BA.1.1 (BA.1 + R346K) (SARS-CoV-2)

Substance	IC50, pseudovirus [1] [µg/mL]	IC50 (ug/ml), authentic virus [2] [µg/mL]	IC50, pseudoviral neutralization [5] [µg/mL]	IC50, pseudovirus [18] [µg/mL]	IC50, pseudovirus [19] [µg/mL]	IC50, pseudovirus [20] [µg/mL]	IC50, pseudovirus [21] [µg/mL]	IC50, pseudovirus [14] [µg/mL]	further results
ADG10 (antibody)	0.007	0.006	0.007	–	–	–	–	–	IC50 (ug/ml), authentic virus [3]: 0.003 µg/mL; IC50 (ug/ml), authentic virus [4]: 0.01 µg/mL
ADG30 (antibody)	0.014	0.007	0.014	–	–	–	–	–	IC50 (ug/ml), authentic virus [3]: 0.002 µg/mL
AZD1061 (antibody)	0.002	0.013	0.002	–	–	–	–	–	IC50 (ug/ml), authentic virus [6]: 3.49 µg/mL
AZD7442	0.001	0.009	0.001	0.008	–	–	–	–	IC50, pseudovirus [7]: 0.252 µg/mL; IC50, pseudovirus [8]: 0.805 µg/mL; IC50 (ug/ml), authentic virus [6]: 0.273 µg/mL; IC50 (ug/ml), authentic virus [3]: 0.006 µg/mL; IC50 (pseudovirus neutralization) [9]: 0.065 µg/mL; IC50 (ug/ml), authentic virus [4]: 0.007 µg/mL; IC50 (pseudovirus neutralization) [10]: 0.026 µg/mL; IC50, pseudoviral neutralization [11]: > 10 µg/mL; IC50 (pseudovirus neutralization) [12]: > 10 µg/mL; IC50 (ug/ml), authentic virus [13]: 3.82 µg/mL; IC50, pseudoviral neutralization [13]: 0.806 µg/mL; IC50 (pseudovirus neutralization) [14]: 0.001 µg/mL; IC50 (ug/ml), authentic virus [15]: 0.005 µg/mL; IC50 (pseudovirus neutralization) [16]: > 10 µg/mL; IC50 (pseudovirus neutralization) [17]: 0.017 µg/mL; IC50 (pseudovirus neutralization) [18]: 0.003 µg/mL
AZD8895 (antibody)	0.001	0.005	0.001	–	–	–	–	–	IC50 (ug/ml), authentic virus [6]: 1.15 µg/mL; IC50 (ug/ml), authentic virus [13]: 6.08 µg/mL; IC50 (pseudovirus neutralization) [14]: 0.001 µg/mL
Known Antibody A (REGN 10987)	–	–	–	–	> 10	> 10	> 10	0.002	–
Known Antibody B (REGN 10933)	–	–	–	> 10	> 10	> 10	> 10	0.001	–
Known Antibody C (AZD1061)	–	–	–	0.008	–	0.308	> 10	0.002	–
Known Antibody D (AZD8895)	–	–	–	–	> 10	0.246	0.1	0.001	–
Known Antibody E (AZD7442)	–	–	–	0.008	0.065	0.232	0.806	0.001	–
Known Antibody F (ADG10)	–	–	–	> 10	> 10	> 10	> 10	0.007	–
Known Antibody G (ADG20)	–	–	–	> 10	> 10	0.348	0.253	0.003	–
Known Antibody H (ADG30)	–	–	–	> 10	> 10	> 10	> 10	0.014	–
Known Antibody I (Ly-CoV-555)	–	–	–	> 10	> 10	> 10	> 10	0.002	–
Known Antibody J (Ly-CoV16)	–	–	–	> 10	> 10	> 10	> 10	0.014	–
Known Antibody K (S309)	–	–	–	–	0.228	0.094	0.138	0.587	–
